Measured values: PMC6008883, “Identification of Peptide Antagonists to Thioredoxin Glutathione Reductase of Schistosoma japonicum” (BioMed Research International, 2018)

Test system: SjTGR
Assay: Phage display peptide library biopanning with SjTGR
Type: binding, Schistosoma japonicum
Settings: 58 clones randomly selected from third round of panning, Ph.D.-12 library, elution with 0.5 mM NADPH

| Sequence | Proportion of sequenced phage clones |
| --- | --- |
| WPHNWWPHFKVK [JIPDys1, M13 phage clone from Ph.D.-12 library displaying peptide …] | 26 / 58 |
| YTMPSLTLYAMG [JIPDys3, M13 phage clone from Ph.D.-12 library displaying peptide …] | 3 / 58 |
| LHAETRSAMHRT [JIPDys2, M13 phage clone from Ph.D.-12 library displaying peptide …] | 2 / 58 |
| KHMHWHPPALNT [JIPDys4, M13 phage clone from Ph.D.-12 library displaying peptide …] | 4 / 58 |
